Compound potency records, mixed from different reports. Data source: NIAID ChemDB in PubChem.

MIC50, MIC90 and the like: level of inhibition, or share of isolates inhibited.

compound	agent	kind	measure	changes	protein	tested at	read by	cell line	strain or isolate	value
BrC(Br)(Br)c1ccc2ccccc2n1	Mycobacterium tuberculosis	culture	MIC	-	-	-	-	-	H37Rv	100 µg/mL
O=C(Nc1nnc(NCCN2CCOCC2)s1)c1cc2ccccc2s1	Human cytomegalovirus	target	IC50	-	Polymerase	-	-	-	-	>25 µM
O=c1[nH]ccc2c([N+](=O)[O-])cccc12	Mycobacterium tuberculosis	culture	MIC	-	-	-	-	-	H37Rv	>100 µg/mL
CCCCCCCC/C=C/CCCCCCCC(=O)Nc1nnc(NCCCCCCCCCCC)s1	Human cytomegalovirus	target	IC50	-	Polymerase	-	-	-	-	<25 µM
Oc1ccc(O)c(C=Nc2ccccc2O)c1	Cryptococcus neoformans	culture	MIC99	-	-	-	-	-	WP	8 µg/mL
CC[C@@H](CO)NCCNC1CCCCCCC1	Mycobacterium tuberculosis	culture	MIC	-	-	-	-	-	-	25 µM
CN(C)c1ccc([NH2+]c2ccc(N(C)C)cc2)cc1.[Cl-]	Mycobacterium tuberculosis	culture	MIC	-	-	-	-	-	H37Rv	>100 µg/mL
CCOC(=O)c1cnc(NCCCCNc2ccnc3cc(Cl)ccc23)nc1C	Cryptococcus gattii	culture	MIC99	-	-	-	-	-	L-28/02	8 µg/mL
Nc1cccc(-c2ccncc2)c1	Mycobacterium tuberculosis	culture	MIC	-	-	-	-	-	H37Rv	>100 µg/mL
O=c1[nH]c2ccc([N+](=O)[O-])cc2[nH]1	Mycobacterium tuberculosis	culture	inhibition	-	-	6.25 µg/mL	resazurin	-	H37Rv	-17%
C[C@H](Cc1ccc(O)c(O)c1)[C@@H](C)Cc1ccc(O)c(O)c1	Candida glabrata	culture	MIC100	-	-	-	broth dilution	-	CCC 115-2000	250 µg/mL
COc1ccccc1CCNCCNCCc1ccc(Cl)cc1Cl	Mycobacterium tuberculosis	culture	MIC	-	-	-	-	-	-	50 µM
O=C(Nc1nnc(NCc2cccs2)s1)c1c(Cl)cccc1Cl	Human cytomegalovirus	target	IC50	-	Polymerase	-	-	-	-	<25 µM
CCO/N=C/c1ccc(OCCC2CCN(c3ccc(Cl)nn3)CC2)cc1	Rhinovirus	culture	EC50	-	-	-	neutral red	KB	181-CV16 (ICAM-1 receptor group 12)	0.014 µM
NC(=O)c1c(Cl)nc(-c2cccc([N+](=O)[O-])c2)c([N+](=O)[O-])c1C(F)(F)F	Mycobacterium tuberculosis	culture	MIC	-	-	-	BACTEC	-	H37Rv	≥12.5 µg/mL
Oc1cccc(C=Nc2ccccc2O)c1	Cryptococcus gattii	culture	MIC99	-	-	-	-	-	L-28/02	5.7 µg/mL
Oc1cc(O)c2c(c1)OC(c1ccc(O)c(O)c1)C(O)C2O	Mycobacterium tuberculosis	culture	MIC bound	-	-	-	resazurin	-	H37Rv	>6.25 µg/mL
O=C(O)c1cc(Cl)ccc1O	Mycobacterium tuberculosis	culture	MIC	-	-	-	-	-	H37Rv	>100 µg/mL
Cn1c2cc(F)ccc2c(=O)c2c(O)cc3c(c21)C=CC(C)(C)O3	Mycobacterium tuberculosis	culture	inhibition	-	-	12.5 µg/mL	BACTEC	-	H37Rv	18%
CCOc1ccccc1CNCCN[C@@H]1C[C@@H]2C[C@H]([C@H]1C)C2(C)C	Mycobacterium tuberculosis	culture	MIC	-	-	-	-	-	-	50 µM
COc1ccc(N2CCN(c3cncc(-c4ccc(F)cc4F)n3)CC2)cc1OC	Cytomegalovirus	target	inhibition	-	UL97 kinase	10 µM	-	-	-	>15%
Cc1ccc(CNCCNCc2ccccc2F)cc1	Mycobacterium tuberculosis	culture	MIC	-	-	-	-	-	-	50 µM
CCC/C=C(/C=O)CC	Mycobacterium tuberculosis	culture	MIC	-	-	-	-	-	H37Rv	>100 µg/mL
Nc1nc(-c2ccccc2)c(-c2ccccc2)s1	Mycobacterium tuberculosis	culture	MIC bound	-	-	-	BACTEC	-	H37Rv	>6.25 µg/mL
NCCS(=O)(=O)O	Mycobacterium tuberculosis	culture	MIC	-	-	-	-	-	H37Rv	>100 µg/mL
COc1ccccc1N1CCN(c2cncc(-c3ccc(F)c(Cl)c3)n2)CC1	Cytomegalovirus	target	IC50	-	UL97 kinase	-	-	-	-	<100 µM
CCOC(=O)c1c(C)nc(NCCCCNc2ccnc3cc(Cl)ccc23)nc1-c1ccc(F)cc1	Cryptococcus neoformans	culture	MIC99	-	-	-	-	-	27JF	4 µg/mL
Cc1nnc2nc3c(nn12)c1ccccc1n3C	Mycobacterium tuberculosis	culture	MIC bound	-	-	-	resazurin	-	H37Rv	>6.25 µg/mL
O=C(O)COc1ccc2ccccc2c1	Mycobacterium tuberculosis	culture	MIC	-	-	-	-	-	H37Rv	>100 µg/mL
Cc1ccc(N2CCN(c3cncc(-c4ccc5ccccc5c4)n3)CC2)cc1C	Cytomegalovirus	target	IC50	-	UL97 kinase	-	-	-	-	<10 µM
COc1cc2c(c3c1CCC(C)(C)O3)Cc1c(cc(OC)c(OC)c1CCC(C)(C)O)O2	Mycobacterium tuberculosis	culture	inhibition	-	-	12.5 µg/mL	BACTEC	-	H37Rv	2%
CCCCCNC(C)C(=O)c1ccccc1.Cl	Mycobacterium tuberculosis	culture	MIC	-	-	-	-	-	H37Rv	>100 µg/mL
CCCCCCCCCCCNCCN[C@@H](C)C1CCCCC1	Mycobacterium tuberculosis	culture	MIC	-	-	-	-	-	-	25 µM
Fc1ccc(N2CCCCC2)c(NC(=S)c2ccncc2)c1	-	host protein	inhibition	-	MKK5	10 µM	kinase activity	-	-	-1%
Cc1nc(NCCCCNc2ccnc3cc(Cl)ccc23)nc(-c2ccccc2)c1C(=O)OC(C)C	Cryptococcus gattii	culture	MIC99	-	-	-	-	-	135L/03	8 µg/mL
CC1(C)N=c2cc3c(cc2N1c1ccc(Cl)cc1)=Nc1ccccc1N3c1ccc(Cl)cc1	Mycobacterium tuberculosis	culture	MIC	-	-	-	-	-	INH-r	0.8 µg/mL
COC(=O)c1ccccc1	Mycobacterium tuberculosis	culture	MIC	-	-	-	-	-	H37Rv	>100 µg/mL
CN(C)c1ccc(-c2cncc(N3CCN(c4ccccc4)CC3)n2)cc1	Cytomegalovirus	target	IC50	-	UL97 kinase	-	-	-	-	<10 µM
S=C=Nc1cccc2ccccc12	Mycobacterium tuberculosis	culture	MIC	-	-	-	-	-	H37Rv	25 µg/mL
Oc1ccccc1N=Cc1ccc2c(c1)OCO2	Cryptococcus neoformans	culture	MIC99	-	-	-	-	-	ATCC 62066	2.8 µg/mL
N=C1C=C(N)C(=O)c2[nH]c(=O)ccc21	Mycobacterium tuberculosis	culture	MIC bound	-	-	-	BACTEC	-	H37Rv	≤12.5 µg/mL
Oc1ccccc1N=Cc1cccc(O)c1O	Cryptococcus gattii	culture	MIC99	-	-	-	-	-	135L/03	5.7 µg/mL
O=C1NN2CCN=C2c2ccncc21	Mycobacterium tuberculosis	culture	inhibition	-	-	12.5 µg/mL	BACTEC	-	H37Rv	1%
CC(=O)c1ccc(N2CCN(c3cncc(-c4ccc(F)cc4)n3)CC2)cc1	Cytomegalovirus	target	IC50	-	UL97 kinase	-	-	-	-	<10 µM
C#Cc1c(C)cc(C)c(CC(N)=O)c1C	Mycobacterium tuberculosis	culture	MIC	-	-	-	-	-	H37Rv	100 µg/mL
COC(=O)C1(OC(=O)CCC(=O)O)C(=O)NC2=C1C(=O)c1ccccc1C2=O	Mycobacterium tuberculosis	culture	inhibition	-	-	6.25 µg/mL	resazurin	-	H37Rv	7%
C=CCN(CCNC(C)Cc1ccc(Cl)cc1)C1CCCC1	Mycobacterium tuberculosis	culture	MIC	-	-	-	-	-	-	50 µM
C=C(C)C1CC=C(C)/C(=N\O)C1	Mycobacterium tuberculosis	culture	MIC	-	-	-	-	-	H37Rv	100 µg/mL
COc1cccc(N2CCN(c3cncc(-c4ccc(F)cc4)n3)CC2)c1	Cytomegalovirus	target	inhibition	-	UL97 kinase	1 µM	-	-	-	<50%
O=C(O)C(F)F	Mycobacterium tuberculosis	culture	MIC	-	-	-	-	-	H37Rv	>100 µg/mL
Fc1cccc(Cl)c1C1SCc2nc3ccccc3n21	Mycobacterium tuberculosis	culture	inhibition	-	-	12.5 µg/mL	BACTEC	-	H37Rv	0%
c1ccc(CCCNCCNC23CC4CC(CC(C4)C2)C3)cc1	Mycobacterium tuberculosis	culture	MIC	-	-	-	-	-	-	37.5 µM
Nc1ccc2c(c1)oc1cc(N)ccc12	Mycobacterium tuberculosis	culture	MIC	-	-	-	-	-	H37Rv	>100 µg/mL
NC(N)=NCCC[C@H]1NC(=O)[C@@H](Cc2ccc(O)cc2)NC1=O	Mycobacterium tuberculosis	culture	MIC	-	-	-	BACTEC	-	H37Rv	≥12.5 µg/mL
C=CCC(CCCCCCCCC)C(=O)O	Mycobacterium tuberculosis	culture	MIC	-	-	-	-	-	H37Rv	50 µg/mL
Cc1ccnc2c1NC(=O)c1cccnc1N2C1CC1	HIV-1	culture	EC95	RT-L74V K101E	-	-	-	MT-4	-	1.5 µM
COc1ccc(C(=O)c2c(C(=O)NOCCCc3ccccc3)[nH]c(=O)c(C#N)c2C(=O)NOCCCc2ccccc2)cc1	Mycobacterium tuberculosis	culture	inhibition	-	-	6.25 µg/mL	resazurin	-	H37Rv	2%
Fc1ccc(N2CCN(c3cncc(-c4ccc(C(F)(F)F)cc4)n3)CC2)c(F)c1	Cytomegalovirus	target	IC50	-	UL97 kinase	-	-	-	-	<10 µM
CCC(CC)[C@H](NC(C)=O)[C@@H]1[C@H](O)[C@@H](C(=O)O)C[C@H]1N=C(N)N	Influenza A virus	culture	EC50	-	-	-	visual reading	MDCK	Influenza A/Shandong/09/93 (H3N2)	0.03 µM
COC(=O)Nc1nc2ccc(SC)cc2c(=O)[nH]1	Mycobacterium tuberculosis	culture	MIC bound	-	-	-	BACTEC	-	H37Rv	>12.5 µg/mL
C#CC[C@@H](C(=O)N[C@H](/C=C/C(=O)OCC)C[C@@H]1CCNC1=O)n1cccc(NC(=O)c2cc(C)on2)c1=O	Rhinovirus	culture	EC50	-	-	-	cytopathic effect / XTT	H1-HELA	Serotype 78	0.05 µM
O=C(Nc1nnc(NCC2CCCCC2)s1)c1ccc([N+](=O)[O-])o1	Human cytomegalovirus	target	IC50	-	Polymerase	-	-	-	-	>25 µM
O=S1(=O)OCOS(=O)(=O)OCO1	Mycobacterium tuberculosis	culture	MIC bound	-	-	-	BACTEC	-	H37Rv	>12.5 µg/mL
OCCCc1ccncc1	Mycobacterium tuberculosis	culture	MIC	-	-	-	-	-	H37Rv	>100 µg/mL
Clc1ccc(-c2cncc(N3CCN(c4ccccn4)CC3)n2)cc1	Cytomegalovirus	target	inhibition	-	UL97 kinase	10 µM	-	-	-	>15%
CCCCCCCCCCNC(=O)c1cccnc1	Mycobacterium tuberculosis	culture	MIC	-	-	-	-	-	H37Rv	>100 µg/mL
O=C(Nc1nnc(NCCCN2CCCC2=O)s1)c1ccc(F)cc1F	Human cytomegalovirus	target	IC50	-	Polymerase	-	-	-	-	>25 µM
C=CCc1ccc(O)c(OC)c1	Candida tropicalis	culture	MIC90	-	-	-	turbidity	-	2960	480 µg/mL
O=C(O)COc1ccc(C(=O)/C(SS/C(C(=O)c2ccc(OCC(=O)O)c(Cl)c2Cl)=C2\C=C(c3ccc(Cl)cc3)SS2)=C2/C=C(c3ccc(Cl)cc3)SS2)c(Cl)c1Cl	Mycobacterium tuberculosis	culture	MIC bound	-	-	-	BACTEC	-	H37Rv	>12.5 µg/mL
Brc1ccc2sc3ccccc3c2c1	Mycobacterium tuberculosis	culture	MIC	-	-	-	-	-	H37Rv	>100 µg/mL
O=C1C(N=Nc2ccc(Br)cc2)Sc2nc3ccccc3n21	Mycobacterium tuberculosis	culture	MIC bound	-	-	-	BACTEC	-	H37Rv	>12.5 µg/mL
Nc1c(Cl)ccc2cccnc12	Mycobacterium tuberculosis	culture	MIC	-	-	-	-	-	H37Rv	50 µg/mL
O=C(Nc1nnc(NC2CCCc3ccccc32)s1)c1ccc2c(c1)C(=O)OC2=O	Human cytomegalovirus	target	IC50	-	Polymerase	-	-	-	-	<25 µM
CC(C)(C)C1=CC(=O)C(C#N)=C(C#N)C1=O	Mycobacterium tuberculosis	culture	MIC bound	-	-	-	BACTEC	-	H37Rv	≤128 µg/mL
CCCCCCCC/C=C/CCCCCCCC(=O)Nc1nnc(NCCSCC)s1	Human cytomegalovirus	target	IC50	-	Polymerase	-	-	-	-	<25 µM
CN(C)C(=S)Oc1ccc(-c2c(-c3ccccc3)oc3ccc4ccccc4c23)cc1	Mycobacterium tuberculosis	culture	MIC bound	-	-	-	BACTEC	-	H37Rv	>12.5 µg/mL
CCCCCCCCCCCNCCNCC(O)c1ccccc1	Mycobacterium tuberculosis	culture	MIC	-	-	-	-	-	-	25 µM
Cc1ccc(C(=O)Nc2nnc(NCC3CCCCC3)s2)cc1	Human cytomegalovirus	target	IC50	-	Polymerase	-	-	-	-	>25 µM

A second listing of 6 rows from above:

compound	agent	kind	measure	changes	protein	tested at	read by	cell line	strain or isolate	value
Nc1ccc2c(c1)oc1cc(N)ccc12	Mycobacterium tuberculosis	culture	MIC	-	-	-	-	-	H37Rv	>100 µg/mL
Cn1c2cc(F)ccc2c(=O)c2c(O)cc3c(c21)C=CC(C)(C)O3	Mycobacterium tuberculosis	culture	inhibition	-	-	12.5 µg/mL	BACTEC	-	H37Rv	18%
COc1ccc(C(=O)c2c(C(=O)NOCCCc3ccccc3)[nH]c(=O)c(C#N)c2C(=O)NOCCCc2ccccc2)cc1	Mycobacterium tuberculosis	culture	inhibition	-	-	6.25 µg/mL	resazurin	-	H37Rv	2%
O=C(O)COc1ccc2ccccc2c1	Mycobacterium tuberculosis	culture	MIC	-	-	-	-	-	H37Rv	>100 µg/mL
S=C=Nc1cccc2ccccc12	Mycobacterium tuberculosis	culture	MIC	-	-	-	-	-	H37Rv	25 µg/mL
OCCCc1ccncc1	Mycobacterium tuberculosis	culture	MIC	-	-	-	-	-	H37Rv	>100 µg/mL

An empty or dashed field is not shown. Inhibition is in % at the dose shown (toxicity tests: loss of growth or viability). ICn: concentration for n% inhibition. ECn: concentration that inhibits the pathogen or its effect by n%. MIC bound comes from a single tested concentration. Conditions beyond the fields shown may differ between rows.